The entries are a selection whose mix differs from that of the whole data set. Active and inactive are the calls of the source.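 The calls were made as follows: active = mean replicate inhibition at least 50% and at least half of replicates individually reaching 50%; inconclusive = only one of the two criteria met; inactive = neither criterion met.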

This assay is described as follows: E. coli Tat export inhibitors, primary screen, MC4100, TorA-mCherry reporter, fluorescence, single point (AID 488895).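 Also: exported cargo escapes ClpAP degradation while cytoplasmic cargo is degraded and loses fluorescence; 0% = median of neutral control wells and 100% = median of NaSCN control wells.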 The following applies: at 10 µM, hits give high values.
By inhibition is commonly meant the drop in the measured response relative to a control, in per cent. For the molecule `O=C(Nc1ccncc1[N+](=O)[O-])c1ccc([N+](=O)[O-])cc1[N+](=O)[O-]`, the inhibition was inactive: -8.98%.

As to `O=C(COc1ccccc1)OC1CN2CCC1CC2` (configuration not stated), the inhibition is inactive: -5.98%. The result for `COP1(=S)c2c(C)nn(CCC#N)c2N=C(c2ccc(F)cc2)N1C` (configuration not stated) reads inactive: -1.46%; that for `CCC(C)N(CC(C)C)C(=S)SC(NC(C)=O)C(Cl)(Cl)Cl` (configuration not stated), inactive: 2.49%.

As for `O=C(OC1CN2CCC1CC2)c1cccc([N+](=O)[O-])c1` (configuration not stated), the inhibition is inactive: 2.35%. The result for `CCOC(=O)c1ccc(NC(=O)C(C)(CCl)SC)cc1` (configuration not stated) reads inactive: 3.69%; that for `Cc1cc(SC(NC(=O)c2ccccc2)C(Cl)(Cl)Cl)nc(C(C)C)n1` (configuration not stated), inactive: -11%.

As to `CCCCOc1ccc(C(=O)NCC2(N3CCCCC3)CCCCC2)cc1OC`, the inhibition was inactive: 16.2%. The result for `CCOC(=O)Nc1ccc([As](=O)(O)O)c(O)c1` reads inactive: -12.8%; that for `CC1CCNP(=O)(N(CCCl)CCCl)O1` (configuration not stated), inactive: 0.395%. As for `Cc1cc(SC(NC=O)C(Cl)(Cl)Cl)ncn1` (configuration not stated), the inhibition is inactive: -4.72%. As for `O=P(Nc1ccccn1)(c1cccc2ccccc12)c1cccc2ccccc12`, the inhibition was inactive: 1.16%. As for `O=[N+]([O-])c1ccc(Nc2ccc(Oc3ccc([N+](=O)[O-])cc3[N+](=O)[O-])cc2)c([N+](=O)[O-])c1`, the inhibition was inactive: -6.93%.

With `CCOC(=O)Nc1cccc([As](=O)(O)O)c1`, the inhibition is inactive: -5.65%. With `Cc1ccc(OP(=O)(Nc2ccc([N+](=O)[O-])cn2)Oc2ccc(C)cc2)cc1` the figure was inactive: 3.83%; with `Cc1ccc2nc3c(c(C)c2c1)CC(C(Cl)Cl)S3` (configuration not stated), inactive: -3.98%. The result for `O=[N+]([O-])c1ccc(-c2cc([N+](=O)[O-])c(O)c([N+](=O)[O-])c2)cc1` reads inactive: -5.18%; that for `COc1cc(C(=O)NCC2(N3CCOCC3)CCCCC2)ccc1OCC(C)C`, inactive: 0.718%; that for `O=[As](O)(c1ccc(O)cc1)c1ccccc1O`, inactive: -2.54%. As for `C[As](=O)(O)c1cccc(C(=O)O)c1`, the inhibition is inactive: -6.48%. As for `O=[N+]([O-])c1cc([N+](=O)[O-])c(-c2ccn[nH]2)s1`, the inhibition was inactive: -5.53%.

As to `CC(C)NC(=O)NP(=O)(Oc1ccccc1)Oc1ccccc1`, the inhibition was inactive: -3.76%.

Take `O=C(OC1CN2CCC1CC2)c1cccc2[nH]cnc12` (configuration not stated): the inhibition is inactive: 5.4%. Take `CCN(CC)C(=S)SC(NC=O)C(Cl)(Cl)Cl` (configuration not stated): the inhibition was inactive: -17.5%.

For the molecule `ClCCSc1nnc(-c2cccnc2)o1`, the inhibition was inactive: 0.731%. Regarding `COC(=O)C1(C)COP(=O)(N2CCCCCC2)OC1` (configuration not stated), the inhibition was inactive: -1.72%. Turning to `CC(C)c1ccc(OP(=O)(Nc2ccccn2)Oc2ccccc2F)cc1` (configuration not stated), the inhibition was inactive: 2.22%.

For the molecule `O=P1(N(CCCl)CCCl)Nc2ccccc2N1`, the inhibition was inactive: -5.96%. The result for `O=P1(N(CCCl)CCCl)OCCCN1CCCl` (configuration not stated) reads inactive: -2.04%; that for `COc1cc(I)ccc1[As](=O)(O)O`, inactive: -0.0135%. Consider `COc1ccc2nc(NP(=O)(c3ccccc3)c3ccccc3)sc2c1`, for which the inhibition is inactive: 0.391%.

On to `Cc1c2c(nc3ccccc13)SC(C(Cl)Cl)C2` (configuration not stated), for which the inhibition is inactive: -4.52%. For the molecule `Cc1cc(=O)[nH]c(N[N+](=O)[O-])n1`, the inhibition was inactive: -0.735%. Take `O=C(OC1CN2CCC1CC2)C12CC3CC(CC(C3)C1)C2` (configuration not stated): the inhibition was inactive: 2.78%. In the case of `O=[N+]([O-])c1cc(Oc2ccc([N+](=O)[O-])cc2C(F)(F)F)cc([N+](=O)[O-])c1`, the inhibition is inactive: -2.85%.

`COc1ccc(N/C(=N/P(=O)(N2CCOCC2)N2CCOCC2)N2CCOCC2)cc1`: the inhibition is inactive: 4.02%. The result for `Cc1cccc(OCC(=O)OC2CN3CCC2CC3)c1` (configuration not stated) reads inactive: -8.98%; that for `O=[As](O)(c1cccc(O)c1)c1cccc(O)c1`, inactive: -1.22%. Consider `O=C(OC1CN2CCC1CC2)c1ccc(Cl)cc1` (configuration not stated), for which the inhibition is inactive: -4.64%. Consider `CS(=O)(=O)c1ccc(Cl)c(NC(=O)COC(=O)C(O)(c2ccccc2)c2ccccc2)c1`, for which the inhibition was inactive: -1.18%. With `O=[As](O)(O)c1cccnc1` the figure was inactive: 25.8%; with `COc1cc(C(=O)NCC2(N3CCOCC3)CCCCC2)cc(Cl)c1OC(C)C`, inactive: -1.54%; with `CCOP(=O)(Nc1cccc2ccccc12)OCC`, inactive: 3%. The result for `COc1cc(C2NCCC3(OCCO3)C2(C)C)cc(OC)c1OC` (configuration not stated) reads inactive: 12.7%; that for `Nc1cccc2c([As](=O)(O)O)cccc12`, inactive: -16.8%. For the molecule `Cc1ccc(NCCc2c([N+](=O)[O-])cc([N+](=O)[O-])cc2[N+](=O)[O-])cc1`, the inhibition is inactive: 0.0805%. The result for `CCCOP(=S)(Nc1nc(N)cc(=O)[nH]1)OCCC` reads inactive: -4.82%.

On to `O=C(O)COc1ccc([As](=O)(O)O)cc1[N+](=O)[O-]`, for which the inhibition is inactive: 1.17%.

As to `Nc1ccccc1[As](=O)(O)c1ccccc1`, the inhibition is inactive: -4.82%.

Consider `O=P(Nc1nccs1)(Oc1ccccc1)Oc1ccccc1`, for which the inhibition was inactive: -5.4%. The result for `O=P(Nc1nccs1)(c1ccccc1)c1nc2ccccc2s1` (configuration not stated) reads inactive: -5.7%; that for `CCOP1(=S)c2c(C)nn(CCC#N)c2N=C(c2ccccc2F)N1C` (configuration not stated), inactive: 3.49%; that for `CS(=O)(=O)c1cc([N+](=O)[O-])c2no[n+]([O-])c2c1`, inactive: -13.7%. Take `CCOP1(=S)c2c(C)nn(CCC#N)c2N=C(c2ccc(F)cc2)N1C` (configuration not stated): the inhibition was inactive: -1.99%. The result for `CN(C(=O)Cc1ccccc1)[C@@H]1CC[C@]2(CCCO2)C[C@H]1N1CCCC1` reads inactive: -10.2%; that for `N#CCCN(C(=O)COC(=O)C(O)(c1ccccc1)c1ccccc1)c1ccc(F)cc1`, inactive: -3.72%; that for `CN(C(=O)Cc1ccc(Cl)c(Cl)c1)[C@H]1CC[C@@]2(CCCO2)C[C@@H]1N1CCCC1`, inactive: -3.05%. The result for `O=[N+]([O-])c1ccc2c(c1)nnn2O` reads inactive: -1.57%. Take `CN(C)C(=O)c1cc([N+](=O)[O-])cc2c1-c1c(cc([N+](=O)[O-])cc1[N+](=O)[O-])C2=O`: the inhibition was inactive: -5.42%. The result for `NC(=O)Nc1ccc([As](=O)(O)O)cc1` reads inactive: 1.33%; that for `CN(C)C1(CNC(=O)c2ccc(S(C)(=O)=O)cc2)CCCCC1`, inactive: -1.23%. Regarding `CCCC1OP(=O)(Nc2ccccc2)OCC1CC` (configuration not stated), the inhibition was inactive: 0.483%.

Source of the values: PubChem BioAssay AID488895 (Broad Institute, 2010).
